# From publication PMC11236204 (PLOS Pathogens, 2024)
# Like-named read-outs stand apart in the source and are kept apart here.
# How the values were obtained:
# RVFV MP-12 [1] = assay: RVFV RNA by qPCR, rat cortical neurons; type: cell-based, Rift Valley fever virus; details: vehicle = 1
# [2] = system: Ifit2, Cxcl10, Tnfa, Cxcl1 RNA; assay: ISG and inflammatory gene expression by qPCR, rat cortical neurons; type: cell-based; details: Fig 4C, vehicle = 1
# La Crosse virus (LACV) [3] = assay: LACV RNA by qPCR, rat neurons; type: cell-based; details: Fig 3G, vehicle = 1
# RVFV MP-12 [4] = details: Fig 4M
# [5] = system: California Encephalitis virus (CEV); assay: CEV titers by plaque assay, U2OS; details: Fig 3M
# [6] = system: Punta Toro virus-Balliet (PTV); assay: PTV titers by plaque assay, U2OS; details: Fig 3N
# La Crosse virus (LACV) [7] = assay: LACV titers by plaque assay, U2OS; details: Fig 3L
# [8] = system: California Encephalitis virus (CEV); assay: CEV titers by plaque assay, rat neurons; details: Fig 3K
# La Crosse virus (LACV) [9] = assay: LACV titers by plaque assay, rat neurons; details: Fig 3J
# La Crosse virus (LACV) [10] = assay: LACV infection, automated microscopy, rat neurons; details: Fig 3D
# Cxcl1, Ccl2 RNA = assay: Cxcl1 and Ccl2 RNA levels in the mouse brain, 3 dpi; details: for CXCL1 RNA / 28s RNA: Figure 6D; for CCL2 RNA / 28s RNA: Figure 6E
compound,measurement,setting,value
CCCCCCCCCCCCCCCC(=O)N[C@@H](CSCC(COC(=O)CCCCCCCCCCCCCCC)OC(=O)CCCCCCCCCCCCCCC)C(=O)N[C@@H](CO)C(=O)N[C@@H](CCCCN)C(=O)N[C@@H](CCCCN)C(=O)N[C@@H](CCCCN)C(=O)N[C@@H](CCCCN)C(=O)O (some centres unmarked) [Pam3CSK4],Rel. Fold change RVFV RNA,"RVFV MP-12 [1]; Fig 4F, replicate 1",0.1384
same,Rel. Fold change RVFV RNA,"RVFV MP-12 [1]; Fig 4F, replicate 2",0.168
same,Rel. Fold change RVFV RNA,"RVFV MP-12 [1]; Fig 4F, replicate 3",0.3464
same,Rel. Fold change RVFV RNA,"RVFV MP-12 [1]; Fig 4J, replicate 1",0.09007
same,Rel. Fold change RVFV RNA,"RVFV MP-12 [1]; Fig 4J, replicate 2",0.06156
same,Rel. Fold change RVFV RNA,"RVFV MP-12 [1]; Fig 4J, replicate 3",0.1507
same,Rel. Fold change RVFV RNA,"RVFV MP-12 [1]; Fig 4J, replicate 4",0.6294
same,Rel. Fold change Tnfa RNA,[2]; replicate 1,153.268
same,Rel. Fold change Tnfa RNA,[2]; replicate 2,368.12
same,Rel. Fold change Tnfa RNA,[2]; replicate 3,204.497
same,Rel. LACV RNA,La Crosse virus (LACV) [3]; replicate 1,0.4326
same,Rel. LACV RNA,La Crosse virus (LACV) [3]; replicate 2,0.2042
same,Rel. LACV RNA,La Crosse virus (LACV) [3]; replicate 3,0.4611
same,Rel. LACV RNA,La Crosse virus (LACV) [3]; replicate 4,0.3402
same,Rel. fold change RVFV infection,"RVFV MP-12 [4]; TLR2 KO, 0.3125 ug/mL, replicate 1",0.93
same,Rel. fold change RVFV infection,"RVFV MP-12 [4]; TLR2 KO, 0.3125 ug/mL, replicate 2",1.177
same,Rel. fold change RVFV infection,"RVFV MP-12 [4]; TLR2 KO, 0.625 ug/mL, replicate 1",0.8775
same,Rel. fold change RVFV infection,"RVFV MP-12 [4]; TLR2 KO, 0.625 ug/mL, replicate 2",0.7719
same,Rel. fold change RVFV infection,"RVFV MP-12 [4]; TLR2 KO, 1.25 ug/mL, replicate 1",0.7786
same,Rel. fold change RVFV infection,"RVFV MP-12 [4]; TLR2 KO, 1.25 ug/mL, replicate 2",0.9358
same,Rel. fold change RVFV infection,"RVFV MP-12 [4]; TLR2 KO, 2.5 ug/mL, replicate 1",0.8014
same,Rel. fold change RVFV infection,"RVFV MP-12 [4]; TLR2 KO, 2.5 ug/mL, replicate 2",0.7844
same,Rel. fold change RVFV infection,"RVFV MP-12 [4]; TLR2 KO, 5 ug/mL, replicate 1",0.6569
same,Rel. fold change RVFV infection,"RVFV MP-12 [4]; TLR2 KO, 5 ug/mL, replicate 2",0.6113
same,Rel. fold change RVFV infection,"RVFV MP-12 [4]; TLR2 KO, 10 ug/mL, replicate 1",0.3819
same,Rel. fold change RVFV infection,"RVFV MP-12 [4]; TLR2 KO, 10 ug/mL, replicate 2",0.4375
same,Rel. fold change RVFV infection,"RVFV MP-12 [4]; Wt, 0.3125 ug/mL, replicate 1",0.8764
same,Rel. fold change RVFV infection,"RVFV MP-12 [4]; Wt, 0.3125 ug/mL, replicate 2",0.8538
same,Rel. fold change RVFV infection,"RVFV MP-12 [4]; Wt, 0.625 ug/mL, replicate 1",0.9506
same,Rel. fold change RVFV infection,"RVFV MP-12 [4]; Wt, 1.25 ug/mL, replicate 1",0.8641
same,Rel. fold change RVFV infection,"RVFV MP-12 [4]; Wt, 1.25 ug/mL, replicate 2",0.874
same,Rel. fold change RVFV infection,"RVFV MP-12 [4]; Wt, 2.5 ug/mL, replicate 1",0.7014
same,Rel. fold change RVFV infection,"RVFV MP-12 [4]; Wt, 2.5 ug/mL, replicate 2",0.7506
same,Rel. fold change RVFV infection,"RVFV MP-12 [4]; Wt, 5 ug/mL, replicate 1",0.6199
same,Rel. fold change RVFV infection,"RVFV MP-12 [4]; Wt, 5 ug/mL, replicate 2",0.5672
same,Rel. fold change RVFV infection,"RVFV MP-12 [4]; Wt, 10 ug/mL, replicate 1",0.3981
same,Rel. fold change RVFV infection,"RVFV MP-12 [4]; Wt, 10 ug/mL, replicate 2",0.4174
same,CEV titers,[5]; replicate 1,13250
same,CEV titers,[5]; replicate 2,12500
same,PTV titers,[6]; replicate 1,23000
same,PTV titers,[6]; replicate 2,7750
same,PTV titers,[6]; replicate 3,24750
same,LACV titers,La Crosse virus (LACV) [7]; replicate 1,13250
same,LACV titers,La Crosse virus (LACV) [7]; replicate 2,10000
same,LACV titers,La Crosse virus (LACV) [7]; replicate 3,19750
same,CEV titers,[8]; replicate 1,2375
same,CEV titers,[8]; replicate 2,1350
same,CEV titers,[8]; replicate 3,3525
same,LACV titers,La Crosse virus (LACV) [9]; replicate 1,11862.5
same,LACV titers,La Crosse virus (LACV) [9]; replicate 2,13250
same,LACV titers,La Crosse virus (LACV) [9]; replicate 3,9000
same,LACV Rel. infection,"La Crosse virus (LACV) [10]; 0.016 ug/mL, replicate 1",1.204
same,LACV Rel. infection,"La Crosse virus (LACV) [10]; 0.016 ug/mL, replicate 2",1.202
same,LACV Rel. infection,"La Crosse virus (LACV) [10]; 0.016 ug/mL, replicate 3",0.905
same,LACV Rel. infection,"La Crosse virus (LACV) [10]; 0.016 ug/mL, replicate 4",0.9894
same,LACV Rel. infection,"La Crosse virus (LACV) [10]; 0.08 ug/mL, replicate 1",1.222
same,LACV Rel. infection,"La Crosse virus (LACV) [10]; 0.08 ug/mL, replicate 2",0.8362
same,LACV Rel. infection,"La Crosse virus (LACV) [10]; 0.08 ug/mL, replicate 3",1.091
same,LACV Rel. infection,"La Crosse virus (LACV) [10]; 0.08 ug/mL, replicate 4",1.09
same,LACV Rel. infection,"La Crosse virus (LACV) [10]; 0.4 ug/mL, replicate 1",1.01
same,LACV Rel. infection,"La Crosse virus (LACV) [10]; 0.4 ug/mL, replicate 2",0.844
same,LACV Rel. infection,"La Crosse virus (LACV) [10]; 0.4 ug/mL, replicate 3",0.9873
same,LACV Rel. infection,"La Crosse virus (LACV) [10]; 0.4 ug/mL, replicate 4",1.219
same,LACV Rel. infection,"La Crosse virus (LACV) [10]; 2 ug/mL, replicate 1",0.7495
same,LACV Rel. infection,"La Crosse virus (LACV) [10]; 2 ug/mL, replicate 2",0.6058
same,LACV Rel. infection,"La Crosse virus (LACV) [10]; 2 ug/mL, replicate 3",0.8588
same,LACV Rel. infection,"La Crosse virus (LACV) [10]; 2 ug/mL, replicate 4",0.8649
same,LACV Rel. infection,"La Crosse virus (LACV) [10]; 10 ug/mL, replicate 1",0.4386
same,LACV Rel. infection,"La Crosse virus (LACV) [10]; 10 ug/mL, replicate 2",0.05115
same,LACV Rel. infection,"La Crosse virus (LACV) [10]; 10 ug/mL, replicate 3",0.2729
same,LACV Rel. infection,"La Crosse virus (LACV) [10]; 10 ug/mL, replicate 4",0.3517
same,CXCL1 RNA / 28s RNA,"Cxcl1, Ccl2 RNA; 1 PFU, mouse 1",3.42E-05
same,CXCL1 RNA / 28s RNA,"Cxcl1, Ccl2 RNA; 1 PFU, mouse 2",5.70E-05
same,CXCL1 RNA / 28s RNA,"Cxcl1, Ccl2 RNA; 1 PFU, mouse 3",2.08E-05
same,CXCL1 RNA / 28s RNA,"Cxcl1, Ccl2 RNA; 5 PFU, mouse 1",7.88E-05
same,CXCL1 RNA / 28s RNA,"Cxcl1, Ccl2 RNA; 5 PFU, mouse 2",8.05E-05
same,CXCL1 RNA / 28s RNA,"Cxcl1, Ccl2 RNA; 5 PFU, mouse 3",5.49E-05
same,CCL2 RNA / 28s RNA,"Cxcl1, Ccl2 RNA; 1 PFU, mouse 1",3.02E-06
same,CCL2 RNA / 28s RNA,"Cxcl1, Ccl2 RNA; 1 PFU, mouse 2",4.98E-06
same,CCL2 RNA / 28s RNA,"Cxcl1, Ccl2 RNA; 1 PFU, mouse 3",1.48E-06
same,CCL2 RNA / 28s RNA,"Cxcl1, Ccl2 RNA; 5 PFU, mouse 1",6.43E-06
same,CCL2 RNA / 28s RNA,"Cxcl1, Ccl2 RNA; 5 PFU, mouse 2",5.03E-06
same,CCL2 RNA / 28s RNA,"Cxcl1, Ccl2 RNA; 5 PFU, mouse 3",3.39E-06
